Data reported in US7094581B2, “Hyaluronan synthases and methods of making and using same” (The Board of Regents of the University of Oklahoma, priority 1998, dated 2006).

Tests used:
seHAS = assay: HA size range and prevalent size made by seHAS variants, 1% agarose gel; assay type: biochemical, Streptococcus equisimilis; settings: HA made by seHAS variants in one hour at saturating substrate
spHAS = assay: HA size range and prevalent size made by spHAS variants, 1% agarose gel; assay type: biochemical, Streptococcus pyogenes; settings: HA made by spHAS variants in one hour at saturating substrate

Molecule | 2–4 MDa (3–6 Kb) (seHAS) | 4–6 MDa (6–9 Kb) (seHAS) | <2 MDa (<3 Kb) (seHAS) | >6 MDa (9–>48.5 Kb) (seHAS) | Peak Size (MDa) (seHAS) | 2–4 MDa (3–6 Kb) (spHAS) | 4–6 MDa (6–9 Kb) (spHAS) | <2 MDa (<3 Kb) (spHAS) | >6 MDa (9–>48.5 Kb) (spHAS) | Peak Size (MDa) (spHAS)
WT: wild-type Streptococcus equisimilis hyaluronan synthase (seHAS-His6), SEQ ID NO:2 (protein, listed as Streptococcus equisimilis, His6 tag) MRTLKNLITVVAFSIFWVLLIYVNVYLFGAKGSLSIYGFLLIAYLLVKMSLSFFYKPFKGRAGQYKVAAIIPSYNEDAESLLETLKSVQQQTYPLAEIYVVDDGSADETGIKRIEDYVRDTGDLSSNVIVHRSEKNQGKRHAQAWAFERSDADVFLTVDSDTYIYPDALEELLKTFNDPTVFAATGHLNVRNRQTNLLTRLTDIRYDNAFGVERAAQSVTGNILVCSGPLSVYRREVVVPNIDRYINQTFLGIPVSIGDDRCLTNYATDLGKTVYQSTAKCITDVPDKMSTYLKQQNRWNKSFFRESIISVKKIMNNPFVALWTILEVSMFMMLVYSVVDFFVGNVREFDWLRVLAFLVIIFIVALCRNIHYMLKHPLSFLLSPFYGVLHLFVLQPLKLYSLFTIRNADWGTRKKLL | 25 ± 7 percentage of total counts (IDV) | 14 ± 5 percentage of total counts (IDV) | 42 ± 21 percentage of total counts (IDV) | 19 ± 9 percentage of total counts (IDV) | 1–2 MDa |  |  |  |  | 
Wildtype: wildtype Streptococcus pyogenes hyaluronan synthase (spHAS-His6), SEQ ID NO:4 (protein, His6 tag; Streptococcus pyogenes) MPIFKKTLIVLSFIFLISILIYLNMYLFGTSTVGIYGVILITYLVIKLGLSFLYEPFKGNPHDYKVAAVIPSYNEDAESLLETLKSVLAQTYPLSEIYIVDDGSSNTDAIQLIEEYVNREVDICRNVIVHRSLVNKGKRHAQAWAFERSDADVFLTVDSDTYIYPNALEELLKSFNDETVYAATGHLNARNRQTNLLTRLTDIRYDNAFGVERAAQSLTGNILVCSGPLSIYRREVIIPNLERYKNQTFLGLPVSIGDDRCLTNYAIDLGRTVYQSTARCDTDVPFQLKSYLKQQNRWNKSFFRESIISVKKILSNPIVALWTIFEVVMFMMLIVAIGNLLFNQAIQLDLIKLFAFLSIIFIVALCRNVHYMVKHPASFLLSPLYGILHLFVLQPLKLYSLCTIKNTEWGTRKKVTIFK |  |  |  |  |  | 29 ± 8 percentage of total counts (IDV) | 12 ± 2 percentage of total counts (IDV) | 33 ± 5 percentage of total counts (IDV) | 26 ± 8 percentage of total counts (IDV) | 2–3 MDa
